PubChem BioAssay AID1224833 | University of Georgia – 2016
Purpose: 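Human genes whose knock-down alters rotavirus replication in monkey cells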 (primary screen). System: monkey MA104 kidney cells. Knock-down reagent: siRNA pool against human genes, 50 nM. Timing: 48 h knock-down before infection; read 24 h after infection. Treatment: infection with rotavirus strain RV3 two days after transfection; infectious dose for this stage not given. Read-out: 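Rotavirus antigen per well by fluorescent immunoassay, normalised to non-targeting control wells on each plate and given as a standard z-score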. Reading the numbers: z-score vs non-targeting control: higher = more rotavirus replication than with non-targeting control. Rule for the call: In these data the active calls have z-score vs non-targeting control at about -1 or lower, or at about 1 or higher. Calls: active = z-score beyond 1 either way; inactive = z-score within 1 of zero.
This is an unselected part of about 12,000 deposited reagents. In the full data, about 5,600 (46%) were called active. 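Active calls cover z-scores past 1 in both directions, so they include lowered as well as raised rotavirus replication.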 A number with no mark means an inactive call.

no.	gene	z-score vs non-targeting control
1	ZFP1	0.0561
2	AFAP1	-1.95 (active)
3	UBAC2	0.484
4	GARRE1	-0.382
5	KIR3DL1	-0.733
6	NCK1	-0.975
7	ECT2	-1.06 (active)
8	RFXAP	2.17 (active)
9	AARD	0.848
10	DEFB107A	-0.188
11	PRRX2	-0.736
12	GET4	-1.21 (active)
13	TMEM156	-1.17 (active)
14	SMARCD1	1.29 (active)
15	SUCO	-0.126
16	MCM3	2.1 (active)
17	NCKAP5L	-3.68 (active)
18	GPLD1	0.543
19	ASPM	0.206
20	ZDHHC9	0.0837
21	SH3TC2	2.78 (active)
22	SH3GL1	0.592
23	OR56A1	0.454
24	ZIM3	-2.11 (active)
25	CYP4A22	-0.972
26	LCE3E	0.448
27	DRAM2	2.06 (active)
28	ZNF823	-1.14 (active)
29	ATP8A1	-1.94 (active)
30	ZNF322	-1.89 (active)
31	BNC2	-0.0681
32	CES3	-1.89 (active)
33	ISOC1	-0.891
34	TUFT1	0.709
35	TDRD6	0.322
36	EFNA1	0.84
37	LY9	0.716
38	CDK9	4.18 (active)
39	AKR7A3	-1.43 (active)
40	FRY	1.4 (active)
41	HOXD10	-0.654
42	RBMY1E	-0.653
43	RFC2	-1.18 (active)
44	KLK13	-0.795
45	POC5	-2.02 (active)
46	CDCA8	-0.145
47	KIFC1	1.36 (active)

An excerpt of the results above, for reference:
no.	gene	z-score vs non-targeting control
36	EFNA1	0.84
37	LY9	0.716
38	CDK9	4.18 (active)
39	AKR7A3	-1.43 (active)
40	FRY	1.4 (active)
41	HOXD10	-0.654
42	RBMY1E	-0.653
43	RFC2	-1.18 (active)

More records follow.
no.	gene	z-score vs non-targeting control
48	KHDC3L	1.16 (active)
49	DNAH3	1.01 (active)
50	COIL	-0.0261
51	XKRY	-1.1 (active)
52	OLFML3	1.32 (active)
53	INTS9	-1.12 (active)
54	NDUFV3	0.0446
55	ZNF641	0.684
56	TMC1	-0.167
57	SULT1C2	2.25 (active)
58	PRELID3A	-0.423
59	ACOT8	-0.6
60	ANKFY1	-1.66 (active)
61	CAMP	0.58
62	NEURL4	1.09 (active)
63	ZDHHC22	0.979
64	MAGEA12	-0.666
65	RMP24	-0.214
66	SINHCAF	-0.437
67	BLZF1	-1.17 (active)
68	SCRN3	-2.09 (active)
69	GSTM3	-3.4 (active)
70	BAGE2	0.154
71	GAB2	-0.962
72	USP1	0.851
73	GGTLC1	-0.257
74	ZNF831	-0.623
75	CNOT12	1 (active)
